Pooled drug test results. Numbers come from NIAID ChemDB, via PubChem.

Common to all: whole-cell or culture tests; agent: HIV-1; cells: H9; read-out: EC50

Conditions beyond the fields shown may differ between rows.

structure,strain or isolate,changes,read by,result
COc1cc(C[C@H]2C(=O)OC[C@@H]2Cc2ccc(OC)c(OC)c2)ccc1O,IIIB,-,p24,<0.13 µM
Cc1ccnc2c1NC(=O)c1cccnc1N2C1CC1,A2(RT-L74V G190E),RT-L74V G190E,p24,>10 µg/mL
COc1cc(CO)c(Cc2nccc3cc(OC)c(OC)cc23)cc1OC,IIIB,-,p24,>18.8 µg/mL
C=C(C)OC(=O)N1c2cc(Cl)ccc2NC(=S)C1(C)C,MN,-,p24,0.006 µg/mL
COc1ccc(Cc2nccc3c(OC)c(OC)ccc23)cc1OC,IIIB,-,p24,>10.2 µg/mL
Cn1cccc1-c1cn([C@H]2C[C@H](O)[C@@H](CO)O2)c(=O)nc1N,IIIB,-,RT activity,>10 µg/mL
CCCCCC1NCCc2cc(O)c(O)cc21,IIIB,-,p24,>21.6 µg/mL
Nc1nc(=O)n([C@@H]2C[C@H](O)[C@@H](CO)O2)cc1C1CC1,IIIB,-,RT activity,>10 µg/mL
CC(C)C1NCCc2cc(O)c(O)cc21,IIIB,-,p24,3.21 µg/mL
Nc1nc(=O)n([C@H]2C[C@H](O)[C@@H](CO)O2)cc1-c1ccccn1,IIIB,-,RT activity,>10 µg/mL
COc1cc(C[C@@]2(O)C(=O)OC[C@@H]2Cc2ccc(OC)c(OC)c2)ccc1O,IIIB,-,p24,~0.52 µM
Cc1c2cc(OCc3ccccc3)c(OCc3ccccc3)cc2cc[n+]1C,IIIB,-,p24,>0.171 µg/mL
Nc1nc(=O)n([C@H]2C[C@H](O)[C@@H](CO)O2)cc1-c1cccs1,IIIB,-,RT activity,>10 µg/mL
COc1cc([C@@H]2c3cc4c(cc3[C@H](O)[C@H]3COC(=O)[C@H]23)OCO4)cc(OC)c1OC,IIIB,-,syncytia,<0.007 µM
Nc1nc(=O)n([C@@H]2C[C@H](O)[C@@H](CO)O2)cc1-c1cccs1,IIIB,-,RT activity,>10 µg/mL
COc1ccc(C[C@H]2COC(=O)[C@@H]2Cc2ccc(O[C@@H]3O[C@H](CO)[C@@H](O)[C@H](O)[C@H]3O)c(OC)c2)cc1OC,IIIB,-,syncytia,<5 µM

2 of the rows above, restated:

structure,strain or isolate,changes,read by,result
CCCCCC1NCCc2cc(O)c(O)cc21,IIIB,-,p24,>21.6 µg/mL
COc1ccc(Cc2nccc3c(OC)c(OC)ccc23)cc1OC,IIIB,-,p24,>10.2 µg/mL

Blank or dashed fields: not listed here. ECn is the concentration giving n% inhibition of infection, replication or growth.